# Measurements reported in patent US20040116385A1, “Treating and preventing viral infections with porphyrin-based compounds” (priority 2002, published 2004).
# Tests used:
# Rat 9L tumor cells = assay: Intracellular localization by confocal fluorescence microscopy, 9L cells; type: cell-based; conditions: 2 μM, 6 or 24 hours
# [1] = test system: human normal keratinocyte line HaCaT; assay: Intracellular localization by confocal fluorescence microscopy, HaCaT cells; type: cell-based; conditions: 2 μM, 6 or 24 hours
substance,measurement,setting,value
meso-tetra[4-(1-methyl-nido-arboranyl)methylphenyl]porphyrin tetrapotassium salt [Compound 4],cells labeled (intracellular fluorescence),Rat 9L tumor cells,100%
same,intracellular localization of fluorescence,Rat 9L tumor cells,predominantly perinuclear
same,cells labeled (intracellular fluorescence),[1],100%
same,intracellular localization of fluorescence,[1],predominantly perinuclear
